Anti-infective test results gathered from many reports (values: NIAID ChemDB through PubChem).

Common to all: tests on isolated targets; species: HIV-1; target: Reverse transcriptase; method: nucleotide incorporation / radiometric; endpoint: fold resistance

Fold resistance: result on the changed form divided by that on wild type. a–b is a range or a potency band. Neighbouring rows are from separate reports. An empty or dashed field is not shown.

smiles,changes,strain or isolate,value
CCN1c2ncc(CCOc3ccc(CC(=O)O)c4ccccc34)cc2C(=O)Nc2c(C)ccnc21,RT-K103N Y181C,,>10
CCN1c2ncc(CCOc3cccc4c3ccc[n+]4[O-])cc2C(=O)Nc2c(C)cc(Cl)nc21,RT-Y188L,,562.5
CCN1c2ncc(CCOc3ccc(C(=O)O)c4c3CCCC4)cc2C(=O)N(C)c2ccc(OC)nc21,RT-K103N Y181C,,1–10
O=P(O)(O)OP(=O)(O)O,RT-Q151E,,3.5
CCN1c2ncc(CCOc3cccc4c3C(C)(C)OC(=O)N4)cc2C(=O)N(C)c2cccnc21,RT-K103N Y181C,IIIB,>1
CCN1c2ncc(CCOc3ccc(-c4ccc(CC(=O)O)cc4F)cc3C)cc2C(=O)N(C)c2cccnc21,RT-K103N Y181C,IIIB,1
CCN1c2ncc(CCOc3ccc4[nH]c(=O)[nH]c4c3)cc2C(=O)N(C)c2cccnc21,RT-K103N Y181C,IIIB,>1
COc1ccc2c(C3CC3)ccc(-n3c(Br)nnc3SCC(=O)Nc3ccc(C(=O)O)cc3Cl)c2c1,RT-Y188L,,>1
CCN1c2ncc(CCOc3cccc4c3CNC(=O)C4)cc2C(=O)N(C)c2cccnc21,RT-K103N Y181C,IIIB,1
Cc1cc(C)cc(S(=O)(=O)c2c(C(N)=O)[nH]c3ccc(Cl)cc23)c1,RT-Y181I,,46.6
CCN1c2ncc(CCOc3ccc(-c4cc(F)c(O)c(F)c4)cc3C)cc2C(=O)N(C)c2cccnc21,RT-K103N Y181C,IIIB,>1
CCN1c2ncc(CCOc3ccc(CC(C)C(=O)O)c4ccccc34)cc2C(=O)N(C)c2ccc(F)nc21,RT-K103N Y181C,,1–10
CCOC(=O)CNC(=O)c1ccc(NC(=O)CSc2nnc(Br)n2-c2ccc(C3CC3)c3ccccc23)c(Cl)c1,RT-Y181C,,>1
CCN1c2ncc(CCOc3ccc(-c4cccc(C(=O)O)c4)cc3C)cc2C(=O)N(C)c2cccnc21,RT-K103N Y181C,IIIB,1
CCN1c2ncc(CCOc3ccc(C(C)C(=O)O)c4ccccc34)cc2C(=O)N(C)c2cccnc21,RT-Y188L,,>10
CCN1c2ncc(CCOc3ccc(-c4nn[nH]n4)cc3C)cc2C(=O)N(C)c2cccnc21,RT-K103N Y181C,IIIB,>2
CCN1c2ncc(CCOc3ccc4on(C(C)(C)C)c(=O)c4c3)cc2C(=O)Nc2c(C)cc(F)nc21,RT-K103N Y181C,IIIB,>1
CCN1c2ncc(CCOc3ccc(-c4ccc(N)c(C(=O)O)c4)cc3C)cc2C(=O)N(C)c2cccnc21,RT-K103N Y181C,IIIB,1
CC(C)C[C@H](NC(=O)c1ccc(NC(=O)CSc2nnc(Br)n2-c2ccc(C3CC3)c3ccccc23)c(Cl)c1)C(=O)O,RT-Y188L,,>1
CCN1c2ncc(CCOc3ccc(-c4ccc(C)nc4)cc3C)cc2C(=O)N(C)c2cccnc21,RT-K103N Y181C,IIIB,1
CCN1c2ncc(CCOc3ccc(NS(=O)(=O)C(F)(F)F)c4ccccc34)cc2C(=O)N(C)c2ccc(F)nc21,RT-V106A,,>10
Cc1cc(C(=O)O)ccc1NC(=O)CSc1nnc(C(F)F)n1-c1ccc(C)c2c1CCCC2,RT-Y188L,,>2
CCN1c2ncc(CCOc3ccc(C(=O)c4ccc(C(=O)O)cc4)cc3C)cc2C(=O)N(C)c2cccnc21,RT-K103N Y181C,IIIB,>1
NC(=O)c1[nH]c2ccc(Cl)cc2c1S(=O)(=O)c1ccccc1,RT-V179D,,35
CCN1c2ncc(CCOc3ccc(C(=O)NC(C)(C)C(=O)O)cc3C)cc2C(=O)N(C)c2cccnc21,RT-K103N Y181C,IIIB,>1
O=C(CSc1nnc(C(F)F)n1-c1ccc(C2CC2)c2ccccc12)Nc1ccc(C(=O)O)cc1Cl,RT-Y188L,,>2

A second listing of 3 rows from above:

smiles | changes | strain or isolate | value
CCN1c2ncc(CCOc3ccc4[nH]c(=O)[nH]c4c3)cc2C(=O)N(C)c2cccnc21 | RT-K103N Y181C | IIIB | >1
CCN1c2ncc(CCOc3ccc(C(=O)c4ccc(C(=O)O)cc4)cc3C)cc2C(=O)N(C)c2cccnc21 | RT-K103N Y181C | IIIB | >1
CCN1c2ncc(CCOc3ccc(CC(C)C(=O)O)c4ccccc34)cc2C(=O)N(C)c2ccc(F)nc21 | RT-K103N Y181C |  | 1–10